Measured values from several laboratories, pooled; numbers as filed in NIAID ChemDB.

Common to all: tests in culture; agent: Mycobacterium tuberculosis

MIC bound comes from a single tested concentration.

SMILES	strain	tested at	changes	read by	read-out	result
CSC(=S)N/N=C/c1ccc[nH]1	H37Rv	128 µg/mL	-	BACTEC	inhibition	100%
Cc1cc(C)c2c(OCCCCN3CCN(c4ccccc4)CC3)nsc2n1	H37Rv	-	-	BACTEC	EC50	>12.5 µg/mL
O=c1[nH]c2c(Cl)cccc2c(O)c1N=Nc1ccc(Cl)c(Cl)c1	H37Rv	-	-	resazurin	MIC	>6.25 µg/mL
CCn1cc(C(=O)O)c(=O)c2cnc(N3CCN(Cc4ccc(CN5CCN(c6cc7c(cc6F)c(=O)c(C(=O)O)cn7C6CC6)CC5)cc4)CC3)nc21	H37Rv	6.25 µg/mL	-	-	inhibition	23%
CCCCCCS/C(N)=N/N=C/c1ccc2ccccc2n1	CNCTC TBC1/47	-	-	-	MIC	8 µM
O=[N+]([O-])c1ccc(CN2CC3CN(c4cccc(C(F)(F)F)c4)CC3C2)o1	Clinical Isolate 16995	-	INH RFP resistant	resazurin	MIC90	<0.016 µg/mL
Cc1c(C(=O)O)nn(-c2ccccc2Cl)c1-c1ccc(Cl)cc1	H37Rv	-	-	agar	MIC90	25 µg/mL
O=C(O)c1cn(C2CC2)c2cc(N3CCN(Cc4ccc(CN5CCNCC5)cc4)CC3)c(F)cc2c1=O	H37Rv	6.25 µg/mL	-	-	inhibition	59%
CCn1c(SCC(=O)N/N=C/c2cc(O)ccc2Br)nnc1-c1ccco1	H37Rv	-	-	-	MIC	>6.25 µg/mL
Cc1ccn2c(C(=O)NCc3ccc(S(F)(F)(F)(F)F)cc3)c(C)nc2c1	H37Rv	-	-	low oxygen	MIC	1.1 µM
O=C(NN1CCCCC1)c1cc(-c2ccc(Cl)cc2)n(-c2ccc(Cl)cc2Cl)n1	H37Rv	-	-	agar	MIC90	25 µg/mL
CCn1c(SCC(=O)N/N=C/c2ccc([N+](=O)[O-])cc2)nnc1-c1ccco1	H37Rv	-	-	-	MIC	>6.25 µg/mL
O=C(Nc1ccccc1)C(=O)Nc1ccccc1	-	-	-	-	MIC	330 µM
C=C/C(C)=C/[C@@]1(C)SC(=O)C(C)=C1O	H37Rv	-	-	-	MIC	240 µM
O=CNNC(=O)CN1C(=O)c2ccccc2C1=O	H37Rv	12.5 µg/mL	-	BACTEC	inhibition	5%
CCOC(=O)c1nn(-c2ccc(Cl)cc2Cl)c(-c2ccc(Cl)cc2)c1C	H37Rv	-	-	agar	MIC90	25 µg/mL
CO[C@H]1/C=C/O[C@@]2(C)Oc3c(C)c(O)c4c(O)c5nc(ncc5c(O)c4c3C2=O)/C(C)=C\C=C\[C@H](C)[C@H](O)[C@@H](C)[C@@H](O)[C@@H](C)[C@H](OC(C)=O)[C@@H]1C	234	-	-	-	MIC	0.5 µg/mL
Cc1cc(C)c2c(=O)n(CCCN3CCN(c4cccc(Cl)c4)CC3)sc2n1	H37Rv	12.5 µg/mL	-	BACTEC	inhibition	100%
CCc1nc2ccc(Cl)cn2c1C(=O)NCc1ccc(S(F)(F)(F)(F)F)cc1	H37Rv	-	-	low oxygen	MIC	0.88 µM
BrN=C1C=CC(=NBr)C=C1	H37Rv	12.5 µg/mL	-	BACTEC	inhibition	1%
CO[C@H]1/C=C/O[C@@]2(C)Oc3c(C)c(O)c4c(O)c(c(/C=N/N5CCN(C)CC5)c(O)c4c3C2=O)NC(=O)/C(C)=C\C=C\[C@H](C)[C@H](O)[C@@H](C)[C@@H](O)[C@@H](C)[C@H](OC(C)=O)[C@@H]1C	Clinical Isolate 16833	-	INH RFP resistant	resazurin	MIC90	>40 µg/mL
CCS/C(N)=N/N=C/c1ccc2cc(Cl)ccc2n1	CNCTC TBC1/47	-	-	-	MIC	16 µM
CO[C@H]1/C=C/O[C@@]2(C)Oc3c(C)c(O)c4c(O)c(c5c(c4c3C2=O)NC2(CCN(CC(C)C)CC2)N=5)=NC(=O)/C(C)=C\C=C\[C@H](C)[C@H](O)[C@@H](C)[C@@H](O)[C@@H](C)[C@H](OC(C)=O)[C@@H]1C	1 isolates (Asp516Val)	-	-	-	MIC	0.5 µg/mL
CCOC(=O)CSc1nnc(-c2ccco2)n1CC	H37Rv	6.25 µg/mL	-	-	inhibition	13%
C1=C2CCCC/C=C\C=C\CCN3CC[C@@H]4[C@H](CCCCCC/C=C\C=C/CCN(C2)C[C@H]14)C3	H37Rv Kurono (ATCC 35812)	-	-	-	MIC	3.13 µg/mL
O=C(O)C1C2CC3C(OC(=O)C31)C2O	H37Rv	12.5 µg/mL	-	BACTEC	inhibition	16%
O=C(N/N=C/c1c(O)cccc1O)c1cccnc1.[Cl][V][Cl]	H37Rv	-	-	broth dilution / resazurin	MIC	0.62 µg/mL
CCS/C(N)=N/N=C/c1ccccc1O	CNCTC TBC1/47	-	-	-	MIC	63 µM
COc1c(N2CCNC(C)C2)c(F)cc2c(=O)c(C(=O)O)cn(C3CC3)c12	11 strains	-	-	-	MIC50	0.12 µg/mL
CCn1cc(C(=O)O)c(=O)c2cc(F)c(N3CCN(C/C=C/CN4CCN(c5cc6c(cc5F)c(=O)c(C(=O)O)cn6C5CC5)CC4)CC3)cc21	H37Rv	6.25 µg/mL	-	-	inhibition	35%
CC1=C(O)C(C)(CCC(C)C)SC1=O	H37Rv	-	-	-	MIC90	>300 µM
C=C1C(=O)C23C(CCC1[C@@H]2O)C12CO[C@]3(O)[C@@H](O)[C@@H]1C(C)(C)CC[C@@H]2O	H37Rv	12.5 µg/mL	-	BACTEC	inhibition	11%
CN(C)CCCN1c2ccccc2Sc2ccc(Cl)cc21	H37Rv	-	-	-	MIC	15 µg/mL
CCN(CC)CCOC(=O)C(C)Oc1c2ccoc2c(OC)c2oc(C)cc(=O)c12	H37Rv	12.5 µg/mL	-	BACTEC	inhibition	-4%
CC(=O)c1ccc(N=Nc2c(O)c3cccc([N+](=O)[O-])c3[nH]c2=O)cc1	H37Rv	-	-	resazurin	MIC	<6.25 µg/mL
NC(=O)c1cnccn1	H37Rv	-	-	agar	MIC90	50 µg/mL
COc1ccc(N=Nc2c(O)c3cccc([N+](=O)[O-])c3n(C)c2=O)c(C)c1	H37Rv	-	-	resazurin	MIC	>6.25 µg/mL
Oc1cccc2c1[nH]c1c(C3=C[C@]4(O)C/C=C/CCCCCN5CC[C@@H]3[C@]3(C[C@@H]6/C=C\CCCCN6C34)C5)nccc12	H37Rv	-	-	-	MIC	<12.5 µg/mL
CCOC(=O)c1cc(Br)c(-c2onc(C)c2Br)n1C	H37Rv	6.25 µg/mL	-	BACTEC	inhibition	27%
CS/C(N)=N/N=C/c1ccc2ccccc2n1	CNCTC TBC1/47	-	-	-	MIC	125 µM
O=C1C(Cl)=C(Nc2ccc(S(=O)(=O)c3ccc(NC4=C(Cl)C(=O)c5ccccc5C4=O)cc3)cc2)C(=O)c2ccccc21	H37Rv	12.5 µg/mL	-	BACTEC	inhibition	15%
Cc1cc(C)c2c(=O)n(CC(O)CN3CCN(c4ccccn4)CC3)sc2n1	H37Rv	-	-	BACTEC	EC50	>12.5 µg/mL
OC1CCCN2CCC1O[C@@]13CC[C@@H](OC[C@]45CN6CCCC/C=C\CC[C@](O)(C=C(c7nccc8c7[nH]c7ccccc78)[C@@H]4CC6)C25)[C@@H](O)CCN1C1[C@]2(CN4CCCC/C=C/CC[C@]1(O)C=C(c1nccc5c1[nH]c1ccccc15)[C@@H]2CC4)C3	H37Rv	-	-	-	MIC	<12.5 µg/mL
O=[N+]([O-])c1ccc(N=Nc2c(Cl)c(O)c3ccccc3c2O)nc1	TAC-R	-	-	-	MIC	>12.5 µg/mL
NNC(=O)c1ccncc1	H37Rv	-	-	resazurin	MIC90	0.078 µg/mL
COC(=O)NC[C@H]1CN(c2ccc(N3CC4(CSC4)C3)c(F)c2)C(=O)O1	H37Rv	-	-	broth dilution / fluorescence	MIC	0.03–0.06 µg/mL
CO[C@H]1/C=C/O[C@@]2(C)Oc3c(C)c(O)c4c(O)c(c(/C=N/N5CCN(C6CCCC6)CC5)c(O)c4c3C2=O)NC(=O)/C(C)=C\C=C\[C@H](C)[C@H](O)[C@@H](C)[C@@H](O)[C@@H](C)[C@H](OC(C)=O)[C@@H]1C	29 isolates	-	-	-	MIC50	0.125 µg/mL
CC1COc2c(N3CCN(C)CC3)c(F)cc3c(=O)c(C(=O)O)cn1c23	H37RV (RIF-R)	-	-	-	MIC	0.63 µg/mL
COc1ccc(N=NC2C(=O)N(C(=O)c3ccncc3)N=C2C)cc1	H37Rv	-	-	BACTEC	MIC bound	>12.8 µg/mL
CCn1c(SCC(=O)N/N=C/C=C/c2ccc([N+](=O)[O-])o2)nnc1-c1ccco1	H37Rv	-	-	-	EC50	>6.25 µg/mL
CC1=C(O)C(C)(Cc2cccc(C(=O)c3ccccc3)c2)SC1=O	H37Rv	-	-	-	MIC90	128 µM
O=C(Nc1ccc(Cl)cc1)C(=O)Nc1ccc(Cl)cc1	-	-	-	-	MIC	>1000 µM
Cc1cc(C)c2c(=O)n(CC(O)CN3CCN(c4ncccn4)CC3)sc2n1	H37Rv	-	-	BACTEC	EC50	>12.5 µg/mL
O=c1[nH]c2cc([N+](=O)[O-])ccc2c(O)c1N=Nc1ccc(Br)cc1	H37Rv	6.25 µg/mL	-	resazurin	inhibition	100%
CO[C@@]12[C@H](COC(=O)NCCO)C3=C(C(=O)C(C)=C(N)C3=O)N1C[C@H]1[C@@H]2N1C	H37Rv	12.5 µg/mL	-	BACTEC	inhibition	99%
CCc1nc2ccc(Cl)cn2c1C(=O)NCc1cccc(S(F)(F)(F)(F)F)c1	H37Rv	-	-	low oxygen	MIC	200 µM
CN1C(=O)/C(=C2\SC(=O)N(CNc3ccc(Br)cc3)C2=O)c2ccccc21	H37Rv	12.5 µg/mL	-	BACTEC	inhibition	0%
CCCCS/C(N)=N/N=C/c1ccc2ccccc2n1	CNCTC TBC1/47	-	-	-	MIC	16 µM
Cc1cccc(C)c1N=Nc1c(O)c2cc(Cl)ccc2[nH]c1=O	H37Rv	-	-	resazurin	MIC	>6.25 µg/mL
CC(C)=NNC(=O)c1ccncc1	-	-	-	-	MIC90	0.4 µg/mL
COc1cc(C)c2sc3ccccc3c(=O)c2c1NCCCN(C)C	H37Rv	12.5 µg/mL	-	BACTEC	inhibition	95%
CC(C)(C)C1CCC(=NNC(=O)c2ccncc2)CC1	H37Rv	-	-	-	MIC	0.05 µg/mL
CO[C@H]1C[C@@H]2\C=C(C)/C=C/C=C\C(=O)N[C@H](c3ccccc3)C/C=C/CC[C@H](O)CC(=O)C2=C1O	TAC-R	-	-	-	MIC	3.1 µg/mL
N#Cc1ccc(N2CC3CCC2CN3Cc2ccc([N+](=O)[O-])o2)cc1	H37Rv	-	-	resazurin	MIC90	<0.016 µg/mL
O=C1OCCCN1/N=C/c1ccc([N+](=O)[O-])o1	H37Rv	6.25 µg/mL	-	resazurin	inhibition	-11%
CCOC(=O)c1nn(-c2ccccc2)c(-c2ccc(Cl)cc2)c1C	H37Rv	-	-	agar	MIC90	25 µg/mL
O=C1C(=O)c2ccc3c(c2-c2cc4c(cc21)OCO4)OCO3	H37Rv	6.25 µg/mL	-	resazurin	inhibition	10%
O=c1nc(N2CCN(CC3CCCCC3)CC2)sc2c([N+](=O)[O-])cc(C(F)(F)F)cc12	Clinical Isolate 16995	-	INH RFP resistant	resazurin	MIC90	<0.016 µg/mL
CCCCCCCS/C(N)=N/N=C/c1ccc2ccccc2n1	CNCTC TBC1/47	-	-	-	MIC	8 µM
Cc1c(C(=O)NN2CCCCC2)noc1-c1ccc(Cl)cc1	H37Rv	-	-	agar	MIC90	12.5 µg/mL
Cc1cc(=O)n2c(n1)sc1ccc3ccccc3c12	H37Rv	6.25 µg/mL	-	resazurin	inhibition	15%
CC(C)(C)c1ccc(N2CCC3(CCN(Cc4ccc([N+](=O)[O-])o4)CC3)CC2)cc1	Clinical Isolate 16833	-	INH RFP resistant	resazurin	MIC90	4.25 µg/mL
O=C(NC=Cc1ccco1)NC1CCCCCCCCCCC1	H37Rv	6.25 µg/mL	-	resazurin	inhibition	74%
O=C(CC(=O)Nc1ccc(Cl)cc1)Nc1ccc(Cl)cc1	-	-	-	-	MIC	12.3 µM
Cc1cccc(C(N)=Nc2nc(-c3ccccn3)cc3ccccc23)c1	J-3064	-	-	-	MIC	1 µg/mL
CC(=O)Oc1ccc2ccc(=O)oc2c1OC(C)=O	H37Rv	12.5 µg/mL	-	BACTEC	inhibition	18%
CC(C)=CCC/C(C)=C/CC/C(C)=C/CC1(C)SC(=O)C(C)=C1O	H37Rv	-	-	-	MIC50	23 µM
O=C1CC2COc3ccccc3C2=NN1c1ccccc1	H37Rv	12.5 µg/mL	-	BACTEC	inhibition	-11%
O=C1O[C@@H](Cn2ccnn2)CN1c1ccc(N2CC3(COC3)C2)c(F)c1	H37Rv	-	-	broth dilution / fluorescence	MIC	3.2–3.7 µg/mL
NNC(=O)c1ccncc1	H37Rv	-	-	resazurin	MIC	0.05 µg/mL

The first 4 rows once more:

SMILES,strain,tested at,changes,read by,read-out,result
CSC(=S)N/N=C/c1ccc[nH]1,H37Rv,128 µg/mL,-,BACTEC,inhibition,100%
Cc1cc(C)c2c(OCCCCN3CCN(c4ccccc4)CC3)nsc2n1,H37Rv,-,-,BACTEC,EC50,>12.5 µg/mL
O=c1[nH]c2c(Cl)cccc2c(O)c1N=Nc1ccc(Cl)c(Cl)c1,H37Rv,-,-,resazurin,MIC,>6.25 µg/mL
CCn1cc(C(=O)O)c(=O)c2cnc(N3CCN(Cc4ccc(CN5CCN(c6cc7c(cc6F)c(=O)c(C(=O)O)cn7C6CC6)CC5)cc4)CC3)nc21,H37Rv,6.25 µg/mL,-,-,inhibition,23%

Percent inhibition refers to the dose given; in toxicity tests it is the harm to the cells. MIC50, MIC90 and the like: level of inhibition, or share of isolates inhibited. An empty or dashed field is not shown. a–b is a range or a potency band. ECn is the concentration giving n% inhibition of infection, replication or growth. Rows are shuffled and stem from different studies.